A mixed list of measured activities; the numbers were collected in NIAID ChemDB.

Shared fields: whole-cell or culture tests; agent: Staphylococcus aureus

Lines come from different laboratories, so protocols vary.

{"smiles": "NCCCCCCCNc1cc2c(cc1F)c(=O)c(C(=O)O)cn2-c1ccc(F)cc1F", "measure": "MIC", "strain or isolate": "ATCC 6538P", "value": "3.1 µg/mL"}
{"smiles": "CCCCCCCCOC[N+](C)(C)CCCCCCCC", "measure": "MIC", "strain or isolate": "ATCC 6538", "value": "14.9 µM"}
{"smiles": "N#Cc1ccc(N2CCN(c3ccc(N4C[C@H](COc5cnccn5)OC4=O)cc3F)CC2)nn1", "measure": "MIC", "strain or isolate": "122 (novobiocin-resistant)", "value": "2 µg/mL"}
{"smiles": "CCCCCCCC[N+](C)(C)COCC(CC)CCCC", "measure": "MIC", "strain or isolate": "ATCC 6538", "value": "7.4 µM"}
{"smiles": "Cc1c(NCCCO)c(F)cc2c(=O)c(C(=O)O)cn(-c3cc(N)c(F)cc3F)c12", "measure": "MIC", "strain or isolate": "SMITH", "value": "0.008 µg/mL"}
{"smiles": "COc1ccccc1CNc1cc2c(cc1F)c(=O)c(C(=O)O)cn2C1CC1", "measure": "MIC", "strain or isolate": "ATCC 6538P", "value": "1.56 µg/mL"}
{"smiles": "Cc1c(NC2CC2)c(F)cc2c(=O)c(C(=O)O)cn(-c3cc(N)c(F)cc3F)c12", "measure": "MIC", "strain or isolate": "SMITH", "value": "<0.004 µg/mL"}
{"smiles": "CCCCCCCCCOC[N+](C)(C)CCCCCCCC", "measure": "MIC", "strain or isolate": "ATCC 6538", "value": "2.86 µM"}
{"smiles": "O=C1O[C@@H](CNc2ccon2)CN1c1ccc(-n2cnc(CO)c2)c(F)c1", "measure": "MIC", "strain or isolate": "078 (oxford)", "value": "0.25 µg/mL"}
{"smiles": "CCCCCCCCCCCC[N+](C)(C)COCCCCC", "measure": "MBC", "strain or isolate": "ATCC 6538", "value": "3.57 µM"}
{"smiles": "COCCN(CCOC)c1cc2c(cc1F)c(=O)c(C(=O)O)cn2C1CC1", "measure": "MIC", "strain or isolate": "ATCC 5278 (methicillin-resistant)", "value": ">100 µg/mL"}
{"smiles": "CS(=O)(=O)N[C@H]1CCN(c2ccc(N3C[C@H](COc4ccon4)OC3=O)cc2F)C1", "measure": "MIC", "strain or isolate": "122 (novobiocin-resistant)", "value": "4 µg/mL"}
{"smiles": "O=C(O)c1cn(C2CC2)c2cc(NCCN3CCCCC3)c(F)cc2c1=O", "measure": "MIC", "strain or isolate": "ATCC 6538P", "value": ">100 µg/mL"}
{"smiles": "CCCCCCCCCCCC[N+](C)(C)CSCCCCC", "measure": "MIC", "strain or isolate": "ATCC 6538", "value": "13.7 µM"}
{"smiles": "NCCCCCCCCCCCCNc1cc2c(cc1F)c(=O)c(C(=O)O)cn2C1CC1", "measure": "MIC", "strain or isolate": "ATCC 5278 (methicillin-resistant)", "value": ">100 µg/mL"}
{"smiles": "Cc1c(NC(C)C)c(F)cc2c(=O)c(C(=O)O)cn(-c3cc(N)c(F)cc3F)c12", "measure": "MIC", "strain or isolate": "209P", "value": "0.008 µg/mL"}
{"smiles": "COCC(C)Nc1cc2c(cc1F)c(=O)c(C(=O)O)cn2C1CC1", "measure": "MIC", "strain or isolate": "ATCC 5278 (methicillin-resistant)", "value": ">100 µg/mL"}
{"smiles": "CS(=O)(=O)N[C@@H]1CCN(c2ccc(N3C[C@H](COc4ccon4)OC3=O)cc2F)C1", "measure": "MIC", "strain or isolate": "004 (methicillin quinolone-resistant)", "value": "1 µg/mL"}

A second listing of 2 rows from above:

COCC(C)Nc1cc2c(cc1F)c(=O)c(C(=O)O)cn2C1CC1 ; measure: MIC ; strain or isolate: ATCC 5278 (methicillin-resistant) ; value: >100 µg/mL
CCCCCCCC[N+](C)(C)COCC(CC)CCCC ; measure: MIC ; strain or isolate: ATCC 6538 ; value: 7.4 µM